Consider one sequence from PMC9135449.

For at least one entry, the source does not settle the construct or the ends of the probe. The comparison behind a weaker result is the experiment's own reference, which may not be listed here. Where a protein sequence is shown, tags need not be part of it. At least one verdict rests on a figure or table, not on a statement of the authors.

This series has as its target T1, HP1043 (UniProt O25684).
T1 sequence (looked up): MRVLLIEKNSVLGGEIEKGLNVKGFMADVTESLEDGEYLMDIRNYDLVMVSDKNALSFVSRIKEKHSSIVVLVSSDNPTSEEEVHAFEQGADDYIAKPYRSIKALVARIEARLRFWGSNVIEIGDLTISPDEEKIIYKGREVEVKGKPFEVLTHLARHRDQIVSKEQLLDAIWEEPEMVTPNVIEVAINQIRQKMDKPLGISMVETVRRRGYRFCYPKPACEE
Kind of series: EMSA. The conditions noted are these: 10 mM Tris-HCl pH 7.5, 40 mM KCl, 100 ug/ml BSA, 1 mM DTT, 5% glycerol, 25 ul, room temperature 30 min, 6% native PAGE in 45 mM Tris/45 mM orthoboric acid, recombinant protein, residues 1-223, protein details: N-terminal His6, label: none (ethidium bromide stain), probe letters rebuilt from the primers and the genome. A general note: In EMSA bound probe runs differently from free probe, usually more slowly.

Regarding “GCCAAAACGCCTAAAGCCACAATAACCTTTTTCATCGTTTGTCTCCTCTACTTATCAAAATGATCTTAAAATGATACAATTACAAGTTTAAGTTTTGCTTAAAAAATGAAGTGAAAATAAGAGAAATAAATATGATTTTATACATTCATATCCCCTTTTGTGAAAATAAATGCGGTTATTGCGCTTTCAA (double strand) [Php1227 190-bp promoter probe]”, the binding result reads like this: (4 uM HP1043 + oxcarbazepine 0.05-1 mM, no appreciable reduction of complex) “binds”; (4 uM HP1043 + temoporfin 0.05-1 mM (inhibition even at 0.05 mM)) “binds more weakly”; (4 uM HP1043 + tetraethylenepentamine 0.05-1 mM, faint shifted band remains) “binds more weakly”; (4 uM HP1043 + trientine 0.05-1 mM, faint shifted band remains) “binds more weakly”.
